Anti-infective test results gathered from many reports (values: NIAID ChemDB through PubChem).

All rows: tests in culture; organism: Mycobacterium tuberculosis

Rows are shuffled and stem from different studies. a–b is a range or a potency band. MIC50, MIC90 and the like: level of inhibition, or share of isolates inhibited. MIC bound comes from a single tested concentration. An empty or dashed field is not shown. Percent inhibition refers to the dose given; in toxicity tests it is the harm to the cells. ECn: concentration that inhibits the pathogen or its effect by n%.

smiles	strain	tested at	cell line	method	read-out	mutations	value
CCCCOc1ccccc1NC(=O)OCCN(C)C	My 331/88				MIC		250 µM
CCCCCCCO/N=C/c1c2c(O)c3c(O)c(C)c4c(c3c1O)C(=O)[C@@](C)(O/C=C/[C@H](OC)[C@@H](C)[C@@H](OC(C)=O)[C@H](C)[C@H](O)[C@H](C)[C@@H](O)[C@@H](C)/C=C/C=C(/C)C(=O)N2)O4	H37Rv				MIC		2 µg/mL
O=C(CCC(F)(F)F)N1CC(c2ccc(F)cc2C(F)(F)F)C1	H37Rv		THP-1	fluorescence	EC50		0.05–0.25 µM
CO[C@@]12[C@H](COC(N)=O)C3=C(C(=O)C(C)=C(N)C3=O)N1C[C@H]1[C@@H]2N1C(=O)/C=C/c1ccccc1	PAS-R				MIC		0.2 µg/mL
CO/N=C/c1c2c(O)c3c(O)c(C)c4c(c3c1O)C(=O)[C@@](C)(O/C=C/[C@H](OC)[C@@H](C)[C@@H](OC(C)=O)[C@H](C)[C@H](O)[C@H](C)[C@@H](O)[C@@H](C)/C=C/C=C(/C)C(=O)N2)O4	H37Rv				MIC		0.05 µg/mL
NNC(=O)c1ccncc1	Isolate 2219				MIC		>4 µg/mL
CC(C)c1nnc(NC(=O)CSC(=S)N2CCOCC2)s1	H37Rv			BACTEC	MIC		≥128 µg/mL
CCOC(=O)Nc1cc(NC(C)CCCN(CC)CC)c2nccnc2n1	H37Rv				EC50		>12.5 µg/mL
C/C=C1/C(=O)O[C@]23C=C[C@@H]4C(C(=O)OC)=CO[C@H](O[C@@H]12)[C@@H]43	MDR3 clinical isolate			MTT	MBC		2.9 µg/mL
CON/C=C(C#N)/C=C/C=Nc1ccc(S(=O)(=O)N=C(N)N)cc1	H37Rv			BACTEC	MIC bound		>12.5 µg/mL
CCCCS(=O)(=O)Nc1ccc2[nH]c(C(=O)N3CCCCC3)c(C)c2c1	H37Rv			resazurin	MIC90		6.25 µM
C[C@@H]1CC[C@]2(C(=O)O)CC[C@]3(C)C(=CC[C@@H]4[C@@]5(C)C[C@H](O)[C@H](O)C(C)(C)[C@@H]5CC[C@]43C)[C@@H]2[C@]1(C)O	H37Rv				MIC		>128 µM
Cn1c(=O)c2[nH]c(=O)c(C(CO)C(=O)c3ccccc3)nc2n(C)c1=O	H37Rv	12.5 µg/mL		BACTEC	inhibition		36%
CCOC(=O)Nc1cc(N)c([N+](=O)[O-])c(NCC(CN(C)c2ccc(NC)cc2)=NC)n1	H37Rv				EC50		>12.5 µg/mL
C/C(=C\CN)CCC[C@H](C)CCC[C@H](C)CCCC(C)C	H37Rv				MIC		32 µg/mL
CN(C)C/C=C(/c1ccccc1)c1ccc(-c2ccc(Br)cc2)cc1	ALI 282				MIC		≤5 µg/mL
CCCCS(=O)(=O)Nc1ccc2[nH]c(C(=O)NCC3CCC3)c(C)c2c1	H37Rv			resazurin	MIC90		>130 µM
CO[C@H]1/C=C/O[C@@]2(C)Oc3c(C)c(O)c4c(O)c(c(/C=N/N5CCN(C)CC5)c(O)c4c3C2=O)NC(=O)/C(C)=C\C=C\[C@H](C)[C@H](O)[C@@H](C)[C@@H](O)[C@@H](C)[C@H](OC(C)=O)[C@@H]1C	H37RV (RIF-R)				MIC		250 µg/mL
O=C(CCC(F)(F)F)N1CC(c2cc(Cl)ccn2)C1	H37Rv		THP-1	fluorescence	EC50		0.05–0.25 µM
CC(=O)Nc1ccc(C(=O)NNC(=O)c2ccc(NC(C)=O)cc2)cc1					MIC		100–200 µg/mL
C.CO[C@H]1[C@H](O)[C@H](O)C(=O)O[C@@H]1CO	H37Rv			resazurin	MIC bound		>6.25 µg/mL
C=C1C(=O)O[C@H]2[C@H]1CC/C(C)=C/CC[C@@]1(C)O[C@@H]21	H37Rv				MIC		16 µg/mL
COc1cc(C2CC(=O)c3ccccc3O2)ccc1O	H37Rv			BACTEC	MIC bound		≤128 µg/mL
CCCCS(=O)(=O)Nc1ccc2[nH]c(C(=O)N(CC)CC)c(C)c2c1	H37Rv			resazurin	MIC90		>100 µM
CN(C)C/C=C(\c1ccc(Cl)cc1)c1ccc(-c2ccc(Br)cc2)cc1	H37Rv				MIC		5 µg/mL
CCCCCCCCCOc1cccc(NC(=O)OCC[NH+]2CCCC2)c1	My 331/88				MIC		32 µM
O=C(NNS(=O)(=O)c1ccc(Cl)cc1)c1ccccc1					MIC		>200 µg/mL
Clc1c(-c2ccccc2)oc(-c2ccccc2)c1CN1CCOCC1	H37Rv	12.5 µg/mL		BACTEC	inhibition		56%
NNC(=O)c1ccc(NS(=O)(=O)c2ccccc2)cc1					MIC		>40 µg/mL
CC1=C2[C@@H](OC1=O)[C@]1(C)C(=O)CC[C@H]1[C@@H](C)C[C@@H]2O	H37Rv				MIC		128 µg/mL
CO[C@H]1/C=C/O[C@@]2(C)Oc3c(C)c(O)c4c(O)c(c(/C=N/OC/C=C(\C)CC/C=C(\C)CCC=C(C)C)c(O)c4c3C2=O)NC(=O)/C(C)=C\C=C\[C@H](C)[C@H](O)[C@@H](C)[C@@H](O)[C@@H](C)[C@H](OC(C)=O)[C@@H]1C	H37Rv				MIC		20 µg/mL
NNC(=O)c1ccncc1	91196				MIC		≥0.2 µg/mL
S=C([S-])NC1CCCCC1.[Na+]	H37Rv	12.5 µg/mL		BACTEC	inhibition		-17%
CCOC(=O)Nc1cc(NC)c([N+](=O)[O-])c(N)n1	H37Rv				EC50		>12.5 µg/mL
CO[C@H]1/C=C/O[C@@]2(C)Oc3c(C)c(O)c4c(O)c(c(/C=N/OCc5ccccc5)c(O)c4c3C2=O)NC(=O)/C(C)=C\C=C\[C@H](C)[C@H](O)[C@@H](C)[C@@H](O)[C@@H](C)[C@H](OC(C)=O)[C@@H]1C	H37Rv				MIC		0.5 µg/mL
CCCCS(=O)(=O)Nc1ccc2[nH]c(C(N)=O)c(C)c2c1	DRM167 32x2			resazurin	MIC90	G240S DG167-resistant	>100 µM
CC(C)=CCC/C(C)=C/CO	H37Rv				MIC		64 µg/mL
CCCCS(=O)(=O)Nc1ccc2[nH]c(C(=O)NCc3ccc(F)cc3)c(C)c2c1	H37Rv			resazurin	MIC90		25 µM
O=[N+]([O-])c1ccc(-c2nc(N(CCO)CCO)c3ccccc3n2)o1	H37Rv	12.5 µg/mL		BACTEC	inhibition		99%
COC1(c2ccc(F)cc2)CN(C(=O)CCC(F)(F)F)C1	H37Rv		THP-1	fluorescence	EC50		<0.05 µM
Nc1ncc([C@@H]2O[C@H](CO)[C@@H](O)[C@H]2O)c(=O)[nH]1	H37Rv			BACTEC	MIC bound		>12.5 µg/mL
CC(=O)NCC1CN(c2ccc(C(C)=O)cc2)C(=O)O1					MIC		1.25 µg/mL
CO[C@H]1/C=C/O[C@@]2(C)Oc3c(C)c(O)c4c(O)c(c(/C=N/OCCCc5ccccc5)c(O)c4c3C2=O)NC(=O)/C(C)=C\C=C\[C@H](C)[C@H](O)[C@@H](C)[C@@H](O)[C@@H](C)[C@H](OC(C)=O)[C@@H]1C	H37Rv				MIC		1 µg/mL
Cc1c2ncccc2cc2oc3ccccc3c(=O)c12	H37Rv			BACTEC	MIC bound		>12.5 µg/mL
COc1c(N2CC[C@@H](C(C)(C)N)C2)c(F)cc2c(=O)c3c(=O)[nH]sc3n(C3CC3)c12	Pan-susceptible clinical isolate 14				MIC		0.06 µg/mL
CN(C)C/C=C(/c1ccc(-c2ccc(Br)cc2)cc1)c1ccc([N+](=O)[O-])cc1	H37Ra				MIC		36.5 µg/mL
NNC(=O)c1ccncc1	H37Rv			luminescence	MIC		0.62 µM
CN(C)C/C=C(/c1ccc(Br)cc1)c1ccc(-c2ccc(Br)cc2)cc1	ALI 3415				MIC		17 µg/mL
C=C1C(=O)O[C@@H]2[C@H]3C(C)=CC[C@@H](O)[C@]3(C)CC[C@@H]12	H37Rv				MIC		64 µg/mL
CCCCCS(=O)(=O)Nc1ccc2[nH]c(C(=O)NC(C)(C)c3ccccc3)c(C)c2c1	H37Rv			resazurin	MIC90		6.25 µM
O=C(N/N=C/c1ccccc1O)c1ccccc1Cl					MIC		>200 µg/mL
CCn1cc(C(=O)O)c(=O)c2cc(F)c(N3CCNCC3)cc21	H37RV (RIF-R)				MIC		31.2 µg/mL
COc1ccc(NC(=O)OCCN(C)C)cc1	My 331/88				MIC		1000 µM
CO[C@H]1/C=C/O[C@@]2(C)Oc3c(C)c(O)c4c(O)c(c(/C=N/N5CCN(C)CC5)c(O)c4c3C2=O)NC(=O)/C(C)=C\C=C\[C@H](C)[C@H](O)[C@@H](C)[C@@H](O)[C@@H](C)[C@H](OC(C)=O)[C@@H]1C	89996				MIC		≥2 µg/mL
CN(C)CC=C(c1ccccc1)c1ccc(-c2ccc(Br)cc2)cc1	ALI 536				MIC		≤5 µg/mL
CCCCCCOc1ccccc1NC(=O)OCCN1CCCCCC1	My 331/88				MIC		16 µM
CCCCCS(=O)(=O)Nc1ccc2[nH]c(C(N)=O)c(C)c2c1	H37Rv			resazurin	MIC90		1.6 µM
O=NN1CCCS1(=O)=O	H37Rv			BACTEC	MIC bound		>12.5 µg/mL
CC(=O)Nc1ccc(S(=O)(=O)NNC(=O)c2ccccc2)cc1					MIC		>200 µg/mL
C=C1C(=O)O[C@@H]2C[C@@]3(C)CCC[C@H](C)C3=C[C@H]12	H37Rv				MIC		32 µg/mL
O=C(CNC(=O)c1ccccc1)N/N=C/c1ccccc1O	H37Rv	12.5 µg/mL		BACTEC	inhibition		28%
CC(C)=CCC[C@@H](C)c1ccc(C)cc1O	H37Rv				MIC		16 µg/mL
CCOC(=O)Nc1cc(NC(C)CCCN(CC)CC)c2ncc(C)nc2n1	H37Rv				EC50		>12.5 µg/mL
CCOC(=O)C1NC(C(=O)OCC)C(=O)C1=O	H37Rv			resazurin	MIC bound		>6.25 µg/mL
CCCCCC(O)C/C=C\CCCCCCCC(=O)NN=C(C)C					MIC		>200 µg/mL
CCCCCCO/N=C/c1c2c(O)c3c(O)c(C)c4c(c3c1O)C(=O)[C@@](C)(O/C=C/[C@H](OC)[C@@H](C)[C@@H](OC(C)=O)[C@H](C)[C@H](O)[C@H](C)[C@@H](O)[C@@H](C)/C=C/C=C(/C)C(=O)N2)O4	H37Rv				MIC		0.5 µg/mL
O=C(CCC(F)(F)F)N1CC(c2cccnc2)C1	H37Rv		THP-1	fluorescence	EC50		1–10 µM
COc1ccc2c(C)cc(NN)nc2c1	H37Rv			BACTEC	MIC bound		>12.5 µg/mL
CCCCCCOc1ccccc1NC(=O)OCCN1CCCCC1	My 331/88				MIC		16 µM
COc1ccc(-c2cc(-c3ccco3)c(C#N)c(=S)n2C2OC(CO)C(O)C(O)C2O)cc1	H37Rv	12.5 µg/mL		BACTEC	inhibition		0%
C=C(C)[C@@H]1CC[C@]2(C)CC[C@]3(C)[C@H](CC[C@@H]4[C@@]5(C)CCC(=O)C(C)(C)[C@@H]5CC[C@]43C)[C@@H]12	H37Rv				MIC		>128 µM
Cc1c2sc3ccccc3nc-2c2ccccc2c1=O	H37Rv				MIC		1.56 µg/mL
O=C(NNS(=O)(=O)c1ccc(Cl)c(Cl)c1)c1ccccc1					MIC		>200 µg/mL
C[C@@H]1C[C@H]2[C@@H](CCCN2C(=O)c2ccccc2)CC1=O	H37Rv			resazurin	MIC bound		>6.25 µg/mL
CCOC(=O)Nc1cc2[nH]c(-c3ccc(C)cc3)nc2c(N(CC)CC)n1	H37Rv				EC50		<12.5 µg/mL
CC1=NN(c2ccc(S(=O)(=O)O)cc2)C(=O)C1N=Nc1ccc(-c2ccc(N=Nc3ccc(O)c(C(=O)O)c3)c(C)c2)cc1C	H37Rv			BACTEC	MIC		≥12.8 µg/mL
C/C(=N\NC(=O)c1cc(Cl)ccc1Cl)c1ccccc1					MIC		200 µg/mL
CCCC[C@H]1C(=O)O[C@H](C)[C@H](NC(=O)c2cccc(NC=O)c2O)C(=O)O[C@@H](C)[C@@H]1OC(=O)CC(C)C	H37Rv			BACTEC	MIC bound		>12.8 µg/mL
Nc1ccc(C(=O)NNC(=O)c2ccc(N)cc2)cc1					MIC		>200 µg/mL

For reference, 7 entries again:

CCCCCCO/N=C/c1c2c(O)c3c(O)c(C)c4c(c3c1O)C(=O)[C@@](C)(O/C=C/[C@H](OC)[C@@H](C)[C@@H](OC(C)=O)[C@H](C)[C@H](O)[C@H](C)[C@@H](O)[C@@H](C)/C=C/C=C(/C)C(=O)N2)O4 ; strain: H37Rv ; read-out: MIC ; value: 0.5 µg/mL
CO[C@H]1/C=C/O[C@@]2(C)Oc3c(C)c(O)c4c(O)c(c(/C=N/OCCCc5ccccc5)c(O)c4c3C2=O)NC(=O)/C(C)=C\C=C\[C@H](C)[C@H](O)[C@@H](C)[C@@H](O)[C@@H](C)[C@H](OC(C)=O)[C@@H]1C ; strain: H37Rv ; read-out: MIC ; value: 1 µg/mL
CO[C@H]1/C=C/O[C@@]2(C)Oc3c(C)c(O)c4c(O)c(c(/C=N/OC/C=C(\C)CC/C=C(\C)CCC=C(C)C)c(O)c4c3C2=O)NC(=O)/C(C)=C\C=C\[C@H](C)[C@H](O)[C@@H](C)[C@@H](O)[C@@H](C)[C@H](OC(C)=O)[C@@H]1C ; strain: H37Rv ; read-out: MIC ; value: 20 µg/mL
NNC(=O)c1ccncc1 ; strain: 91196 ; read-out: MIC ; value: ≥0.2 µg/mL
C=C(C)[C@@H]1CC[C@]2(C)CC[C@]3(C)[C@H](CC[C@@H]4[C@@]5(C)CCC(=O)C(C)(C)[C@@H]5CC[C@]43C)[C@@H]12 ; strain: H37Rv ; read-out: MIC ; value: >128 µM
CN(C)C/C=C(/c1ccc(-c2ccc(Br)cc2)cc1)c1ccc([N+](=O)[O-])cc1 ; strain: H37Ra ; read-out: MIC ; value: 36.5 µg/mL
Nc1ccc(C(=O)NNC(=O)c2ccc(N)cc2)cc1 ; read-out: MIC ; value: >200 µg/mL